{"source": "PubChem BioAssay AID504761 (Drosophila RNAi Screening Center, 2011)", "assay": "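Genome-wide fly cell screen for genes dengue virus requires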 (primary screen)", "system": "D.Mel-2 cells from Drosophila", "knock-down reagent": "long dsRNA against Drosophila genes", "challenge": "infection with dengue virus type 2; dose and infection time not stated", "measurement": "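Cells stained for dengue envelope protein and imaged; percent of infected cells per well on duplicate plates, ranked by infection, with stained nuclei counted for cell number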", "reading the numbers": "infection score: higher = more virus-infected cells", "hit rule": "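Low infection ranks in the two replicates (chance level up to 0.065) followed by a retest with a 1.5-fold or larger significant decrease, p below 0.05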", "meaning of the calls": "active = confirmed: knock-down lowers infection; inactive = not picked or not confirmed", "note": "In all, the deposit lists about 22,000 reagents; shown is an unselected part of those with a known target gene and a result. In the full data, 116 (0.52%) were called active. 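Calls depend on retest data that are not deposited; infection was ranked per plate without normalising between plates; the unit of the infection score is not given.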 Unmarked entries are inactive. The numbers tell different reagents against one gene apart. Further read-outs or replicates are left out here. The record does not give: the amount of reagent, the time to read-out."}
{"gene":"BEAF-32 (Boundary element-associated factor of 32kD)","reagent no.":1,"infection score, replicate 1":10.8}
{"gene":"Rdl (Resistant to dieldrin)","reagent no.":1,"infection score, replicate 1":11.5}
{"gene":"Rdl (Resistant to dieldrin)","reagent no.":2,"infection score, replicate 1":11.3}
{"gene":"Osi5 (Osiris 5)","reagent no.":1,"infection score, replicate 1":3.91}
{"gene":"Pop5 (POP5 ribonuclease P/MRP subunit)","reagent no.":1,"infection score, replicate 1":1.07}
{"gene":"CG14420","reagent no.":1,"infection score, replicate 1":3.66}
{"gene":"CG14420","reagent no.":2,"infection score, replicate 1":1.54}
{"gene":"CG31924","reagent no.":1,"infection score, replicate 1":1.93}
{"gene":"Eaf6 (Esa1-associated factor 6)","reagent no.":1,"infection score, replicate 1":3.84}
{"gene":"CG34447","reagent no.":1,"infection score, replicate 1":3.59}
{"gene":"Pex14 (Peroxin 14)","reagent no.":1,"infection score, replicate 1":9.42}
{"gene":"Pex14 (Peroxin 14)","reagent no.":2,"infection score, replicate 1":13.2}

Already shown: 2 of the entries above.
{"gene":"CG31924","reagent no.":1,"infection score, replicate 1":1.93}
{"gene":"Eaf6 (Esa1-associated factor 6)","reagent no.":1,"infection score, replicate 1":3.84}
